Pooled drug test results. Numbers come from NIAID ChemDB, via PubChem.

Shared fields: whole-cell or culture tests; species: Staphylococcus aureus

MIC50, MIC90 and the like: level of inhibition, or share of isolates inhibited. Rows are shuffled and stem from different studies.

SMILES,measure,strain,result
CS(=O)(=O)N[C@H]1CCN(c2ccc(N3C[C@H](COc4cnsn4)OC3=O)cc2F)C1,MIC,004 (methicillin quinolone-resistant),0.5 µg/mL
CCCCCCCCOC[N+](C)(C)CCCCCCCC,MIC,ATCC33592,149 µM
NCCSc1cc2c(cc1F)c(=O)c(C(=O)O)cn2-c1ccc(F)cc1F,MIC,ATCC 6538P,0.39 µg/mL
O=C(CO)N[C@H]1CCN(c2ccc(N3C[C@H](COc4ccon4)OC3=O)cc2F)C1,MIC,004 (methicillin quinolone-resistant),8 µg/mL
CCOC(CNc1cc2c(cc1F)c(=O)c(C(=O)O)cn2C1CC1)OCC,MIC,ATCC 5278 (methicillin-resistant),>100 µg/mL
Cc1cn(-c2ccc(N3C[C@H](COc4ccon4)OC3=O)cc2F)cn1,MIC,004 (methicillin quinolone-resistant),2 µg/mL
Cc1c(NCCCO)c(F)cc2c(=O)c(C(=O)O)cn(-c3cc(N)c(F)cc3F)c12,MIC,W44 (methicillin-resistant),0.5 µg/mL
CCCCCCCCCOC[N+](C)(C)CCCCCCCC,MBC,ATCC 6538,2.86 µM
CC(C)OCCCNc1cc2c(cc1F)c(=O)c(C(=O)O)cn2C1CC1,MIC,ATCC 5278 (methicillin-resistant),>100 µg/mL
CCCCCCCCCCCC[N+](C)(C)COCC(CC)CC,MIC,ATCC 6538,2.75 µM
O=C(O)c1cn(C2CC2)c2cc(NCCCCCCO)c(F)cc2c1=O,MIC,ATCC 5278 (methicillin-resistant),>100 µg/mL
Cc1c(N)c(F)cc2c(=O)c(C(=O)O)cn(-c3cc(N)c(F)cc3F)c12,MIC50,27 isolates (methicillin-resistant),0.015 µg/mL
CCCCCCCCCCCC[N+](C)(C)COC(C)C,MBC,ATCC 6538,9.32 µM
Cc1c(NCCO)c(F)cc2c(=O)c(C(=O)O)cn(-c3cc(N)c(F)cc3F)c12,MIC,SMITH,0.008 µg/mL
CC(CO)Nc1cc2c(cc1F)c(=O)c(C(=O)O)cn2C1CC1,MIC,ATCC 6538P,12.5 µg/mL
CS(=O)(=O)N[C@H]1CCN(c2ccc(N3C[C@H](COc4ccon4)OC3=O)cc2F)C1,MIC,004 (methicillin quinolone-resistant),2 µg/mL
NCCCCCCCCCCNc1cc2c(cc1F)c(=O)c(C(=O)O)cn2C1CC1,MIC,ATCC 6538P,>100 µg/mL
CCCCCCCCCCCC[N+](C)(C)COCCCCC,MBC,ATCC33592,7.14 µM

Repeating the final 2 entries:

SMILES	measure	strain	result
NCCCCCCCCCCNc1cc2c(cc1F)c(=O)c(C(=O)O)cn2C1CC1	MIC	ATCC 6538P	>100 µg/mL
CCCCCCCCCCCC[N+](C)(C)COCCCCC	MBC	ATCC33592	7.14 µM